Anti-infective test results gathered from many reports (values: NIAID ChemDB through PubChem).

Common to all: toxicity to cultured cells; cells: C8166; read-out: CC50

CCn is the concentration with n% toxicity to the cells.

{"structure": "Nc1ccn([C@H]2CC[C@@H](CO)O2)c(=O)n1", "value": "48 µM"}
{"structure": "COC(=O)[C@H](C)NP(=O)(OC[C@@H]1CC[C@H](n2cnc3c(N)ncnc32)O1)Oc1ccccc1", "value": "15 µM"}
{"structure": "C=C(C)[C@@]1(O)[C@H](OC(C)=O)[C@@H]2[C@H](OC(=O)c3ccccc3)[C@@]3(C)O[C@@]4([C@@H]3OC(=O)c3ccccc3)[C@@H](O)[C@@H](C)C[C@H]4[C@@]2(O)[C@H](C)[C@@H]1OC(=O)c1ccccc1", "method": "MTT", "value": ">200 µg/mL"}
{"structure": "CCOP(=O)(N[C@@H](CC(C)C)C(=O)OC)OC[C@H]1O[C@@H](n2cc(C)c(=O)[nH]c2=O)C[C@@H]1N=[N+]=[N-]", "method": "MTT", "value": ">500 µg/mL"}
{"structure": "CC[C@@]1(O)C(=O)OCc2c1cc1n(c2=O)Cc2cc3cc(O)ccc3nc2-1", "method": "MTT", "value": "0.1409 µg/mL"}
{"structure": "COc1ccc(-c2c[nH]c(=S)n2NC(=S)Nc2ccc(Cl)cc2)cc1", "method": "MTT", "value": "100.9 µM"}
{"structure": "O=C(CCCCCCc1ncc2ccc(Cl)nn12)c1ccccc1", "value": ">0.34 µM"}
{"structure": "C=C(C)[C@@]1(O)[C@H](OC(C)=O)[C@@H]2[C@H](OC(=O)c3ccccc3)[C@@]3(C)O[C@@]4([C@@H]3OC(C)=O)[C@@H](OC(C)=O)[C@@H](C)C[C@H]4[C@@]2(O)[C@H](C)[C@@H]1OC(=O)c1ccccc1", "method": "MTT", "value": ">200 µg/mL"}
{"structure": "COc1ccc(-c2c[nH]c(=S)n2NC(=S)Nc2ccc(Br)cc2)cc1", "method": "MTT", "value": "25.14 µM"}
{"structure": "C=C(C)[C@@]1(OC(=O)c2ccccc2)[C@H](OC(C)=O)[C@@H]2[C@H](OC(C)=O)[C@@]3(C)O[C@@]4([C@@H]3OC(=O)c3ccccc3)[C@@H](O)[C@@H](C)C[C@H]4[C@@]2(O)[C@H](C)[C@@H]1OC(C)=O", "method": "MTT", "value": "106 µg/mL"}
{"structure": "Cc1ccc(C(O)c2cc(Cl)ccc2OCC(=O)Nc2ccc(S(N)(=O)=O)cc2C)c(C)c1", "value": ">4.1 µM"}
{"structure": "COc1ccc(-c2c[nH]c(=S)n2NC(=S)Nc2ccc(C)cc2C)cc1", "method": "MTT", "value": "42.03 µM"}
{"structure": "C[C@@H]1O[C@@H](OC[C@H]2O[C@@H](Oc3cc(O)c4c(c3)OC(c3ccc(O)cc3)CC4=O)[C@H](O)[C@@H](O)[C@@H]2O)[C@H](O)[C@H](O)[C@H]1O", "value": "16 µg/mL"}
{"structure": "Cc1ccc(-c2c[nH]c(=S)n2NC(=S)Nc2ccc(C)cc2C)cc1", "method": "MTT", "value": "31.69 µM"}
{"structure": "Cc1nc(CCCCCOC(=O)c2ccccc2)n2nc(Cl)ccc12", "value": ">1.1 µM"}
{"structure": "C=C(C)[C@@]1(O)[C@H](OC(C)=O)[C@@H]2[C@H](OC(=O)c3ccccc3)[C@@]3(C)O[C@@]4([C@@H]3OC(=O)c3ccccc3)[C@@H](OC(C)=O)[C@@H](C)C[C@H]4[C@@]2(O)[C@H](C)[C@@H]1OC(C)=O", "method": "MTT", "value": "41.95 µg/mL"}
{"structure": "Cc1cccc(S(=O)(=O)c2c(C(=O)NNCCO)[nH]c3ccc(Cl)cc23)c1", "method": "MTT", "value": ">100 µM"}
{"structure": "C=C(C)[C@@]1(OC(C)=O)[C@H](OC(C)=O)[C@@H]2[C@H](OC(C)=O)[C@@]3(C)O[C@@]4([C@@H]3OC(=O)c3ccccc3)[C@@H](OC(C)=O)[C@@H](C)C[C@H]4[C@@]2(O)[C@H](C)[C@@H]1OC(=O)c1ccccc1", "method": "MTT", "value": "19.2 µg/mL"}
{"structure": "O=c1c(O[C@@H]2O[C@H](CO)[C@@H](O)[C@H](O)[C@H]2O)c(-c2ccc(O)c(O)c2)oc2cc(O)cc(O)c12", "value": ">100 µg/mL"}
{"structure": "CC(C)(C)NC(=O)[C@@H]1C[C@@H]2CCCC[C@@H]2CN1C[C@@H](O)[C@H](Cc1ccccc1)NC(=O)[C@H](CC(N)=O)NC(=O)c1ccc2ccccc2n1", "value": ">0.001 µg/mL"}
{"structure": "Nc1ncnc2c1ncn2[C@H]1C=C[C@@H](CO)O1", "value": "97 µM"}
{"structure": "C[C@@H]1O[C@@H](Oc2c(-c3cc(O)c(O)c(O)c3)oc3cc(O)cc(O)c3c2=O)[C@H](O)[C@H](O)[C@H]1O", "value": ">200 µg/mL"}
{"structure": "Cc1nc(CCCCCCC(=O)c2ccccc2)n2nc(Cl)ccc12", "value": ">0.08 µM"}
{"structure": "CCO[C@H]1C[C@H](n2cc(C)c(=O)[nH]c2=O)O[C@@H]1CO", "value": ">100 µM"}
{"structure": "Cc1nc(CCCCCCC(=O)c2ccccc2)n2nc(-n3cccc3)ccc12", "value": ">0.005 µM"}
{"structure": "Cc1cn([C@H]2C[C@H](N=[N+]=[N-])[C@@H](CO)O2)c(=O)[nH]c1=O", "value": "500 µM"}
{"structure": "O=C(O)P(=O)(O)O", "method": "MTT", "value": ">500 µg/mL"}
{"structure": "Cc1nc(CCCCCOCc2ccccc2)n2nc(Cl)ccc12", "value": ">0.58 µM"}
{"structure": "CC(=O)O[C@H]1C[C@H](n2cc(C)c(=O)[nH]c2=O)O[C@@H]1COP(=O)(OCC(Cl)(Cl)Cl)OCC(Cl)(Cl)Cl", "value": ">100 µM"}
{"structure": "C=C(C)[C@@]1(O)[C@H](OC(C)=O)[C@@H]2[C@H](OC(C)=O)[C@@]3(C)O[C@@]4([C@@H]3OC(=O)c3ccccc3)[C@@H](OC(C)=O)[C@@H](C)C[C@H]4[C@@]2(O)[C@H](C)[C@@H]1OC(=O)c1ccccc1", "method": "MTT", "value": ">200 µg/mL"}
{"structure": "OC[C@H]1N[C@H](CO)[C@@H](O)[C@@H]1O", "method": "MTT", "value": ">500 µg/mL"}
{"structure": "C[C@@H]1OC(OC[C@H]2O[C@@H](Oc3cc(O)c4c(c3)OC(c3ccc(O)cc3O)CC4=O)[C@H](O)[C@@H](O)[C@@H]2O)[C@H](O)[C@H](O)[C@H]1O", "value": ">100 µg/mL"}
{"structure": "C=C(C)[C@H](O)COc1cc(OC)c2c(c1)C(=O)c1c(O)ccc(O)c1-2", "method": "MTT", "value": ">200 µg/mL"}

Repeating the final 2 entries:

{"structure": "C[C@@H]1OC(OC[C@H]2O[C@@H](Oc3cc(O)c4c(c3)OC(c3ccc(O)cc3O)CC4=O)[C@H](O)[C@@H](O)[C@@H]2O)[C@H](O)[C@H](O)[C@H]1O", "value": ">100 µg/mL"}
{"structure": "C=C(C)[C@H](O)COc1cc(OC)c2c(c1)C(=O)c1c(O)ccc(O)c1-2", "method": "MTT", "value": ">200 µg/mL"}

Neighbouring rows are from separate reports.